Here are results for 5 compounds from article PMC8284461, “Piperidine-4-Carboxamides Target DNA Gyrase in Mycobacterium abscessus” (Antimicrobial Agents and Chemotherapy, 2021).

The structures appear in SMILES notation. Converted amounts (≈) assume the structure as drawn. Where only a bound is given, the exact number is not on record here.

The subject of experiment [1] is M. abscessus subsp. abscessus ATCC 19977 844-TFM^r-3 (GyrA V46F). Briefly: MIC, resistant mutant. Format: cell-based, Mycobacterium abscessus. As to conditions: Mycobacteroides abscessus, ATCC19977.
The subject of experiment [2] is M. abscessus subsp. abscessus ATCC 19977 844-TFM^r-1 (GyrA D91N). Briefly: MIC, resistant mutant. Format: cell-based, Mycobacterium abscessus. As to conditions: Mycobacteroides abscessus, ATCC19977.
In experiment [3] the test system is M. abscessus subsp. abscessus ATCC 19977 844-TFM^r-2 (GyrA D91G). Briefly: MIC, resistant mutant. Format: cell-based, Mycobacterium abscessus. As to conditions: Mycobacteroides abscessus, ATCC19977.
The test system of experiment [4] is M. abscessus subsp. abscessus ATCC 19977 844-TFM^r-5 (GyrB V496L). Briefly: MIC, resistant mutant. Format: cell-based, Mycobacterium abscessus. The following applies: Mycobacteroides abscessus, ATCC19977.
Experiment [5] concerns M. abscessus subsp. abscessus ATCC 19977 844-TFM^r-1 (GyrA D91N) complemented with wild-type gyrAB. Briefly: Complementation of P4C-resistant strain with wild-type gyrAB. The following applies: treated at 1× MIC for 2 days, OD600.

Regarding `CCNC(=O)Nc1nc2cc(-c3cnc(C(C)(C)O)nc3)c(F)c([C@H]3CCCO3)c2[nH]1` [SPR719], the minimum inhibitory concentration (MIC) (in general, the lowest concentration that inhibits growth of the organism) in experiment [1] was 0.05 µM (≈ 0.0214 µg/mL); in experiment [2], 0.06 µM (≈ 0.0257 µg/mL); in experiment [3], 0.04 µM (≈ 0.0171 µg/mL); in experiment [4], 0.02 µM (≈ 0.00857 µg/mL).
Turning to `CC[C@H]1OC(=O)[C@H](C)[C@@H](O[C@H]2C[C@@](C)(OC)[C@@H](O)[C@H](C)O2)[C@H](C)[C@@H](O[C@@H]2O[C@H](C)C[C@H](N(C)C)[C@H]2O)[C@](C)(OC)C[C@@H](C)C(=O)[C@H](C)[C@@H](O)[C@]1(C)O` [CLR, clarithromycin], the minimum inhibitory concentration (MIC) in experiment [1] was found to be 2 µM (≈ 1.5 µg/mL); in experiment [2], 2 µM (≈ 1.5 µg/mL); in experiment [3] it was 1 µM (≈ 0.748 µg/mL); in experiment [4], 2 µM (≈ 1.5 µg/mL).
Turning to `COc1c(N2C[C@@H]3CCCN[C@@H]3C2)c(F)cc2c(=O)c(C(=O)O)cn(C3CC3)c12` [MXF, moxifloxacin], the MIC was found to be 1.5 µM (≈ 0.602 µg/mL) in experiment [1], 20 µM (≈ 8.03 µg/mL) in experiment [2], 6 µM (≈ 2.41 µg/mL) in experiment [3] and 2 µM (≈ 0.803 µg/mL) in experiment [4].
As to `COc1ccc2nccc(NC(=O)C3CCN(CCc4ccc(Cl)cc4)CC3)c2n1` [compound 844], the “effect of wild-type gyrAB complementation on sensitivity” value in experiment [5] is reported as “partially restored sensitivity”. Also, the MIC in experiment [1] is 40 µM (≈ 17 µg/mL); in experiment [2], above 100 µM; in experiment [3] it was above 100 µM; in experiment [4] it was 25 µM (≈ 10.6 µg/mL).
For the compound `COc1ccc2nccc(NC(=O)C3CCN(CCc4ccc(C(F)(F)F)cc4)CC3)c2n1` [844-TFM], the “effect of wild-type gyrAB complementation on sensitivity” value in experiment [5] is recorded as “partially restored sensitivity”. Moreover, the MIC in experiment [1] is 20 µM (≈ 9.17 µg/mL); in experiment [2], above 100 µM; in experiment [3], above 100 µM; in experiment [4] it was 5 µM (≈ 2.29 µg/mL).
